From patent US20160017047

Molecular target: T1, CD20 (B-lymphocyte antigen CD20), human, P11836 1-297
T1 sequence: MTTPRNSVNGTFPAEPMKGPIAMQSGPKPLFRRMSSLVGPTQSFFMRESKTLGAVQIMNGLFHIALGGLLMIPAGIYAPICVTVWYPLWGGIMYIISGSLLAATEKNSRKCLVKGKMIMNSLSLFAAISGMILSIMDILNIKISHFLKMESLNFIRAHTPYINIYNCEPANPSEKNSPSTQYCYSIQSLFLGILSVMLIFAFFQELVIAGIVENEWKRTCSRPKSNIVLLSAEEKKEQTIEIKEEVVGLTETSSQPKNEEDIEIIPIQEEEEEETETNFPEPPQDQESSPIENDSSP

Substance	Kd [nM]
αCD20scFv:SLT-1A version 2	101
αCD20scFv:SLT-1A version 1	82.5
